PubChem BioAssay AID504761 | Drosophila RNAi Screening Center – 2011
Test: 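Insect host genes that dengue virus relies on to spread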 (primary screen). Cell system: D.Mel-2 cells from Drosophila. Reagent: long dsRNA against Drosophila genes. Treatment: infection with dengue virus type 2; dose and infection time not stated. Detection: 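Per well on two replicate plates, imaging gave the percent of cells positive for viral envelope protein, ranked by infection, and a nuclear count of cells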. Scale: infection score: higher = more virus-infected cells; cell count: higher = more cells in the well. Call rule: 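Low infection ranks in the two replicates (chance level up to 0.065) followed by a retest with a 1.5-fold or larger significant decrease, p below 0.05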. Calls: active = confirmed: knock-down lowers infection; inactive = not picked or not confirmed.
The deposit covers about 22,000 reagents; shown is a random part of those with a known target gene and a result. Over the whole deposit, 116 (0.52%) got an active call. 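Calls depend on retest data that are not deposited; infection was ranked per plate without normalising between plates; the unit of the infection score is not given.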 The raw values are shown without normalisation. The numbers tell different reagents against one gene apart. Names joined by + are all predicted targets of the reagent. Not given: the amount of reagent, the time to read-out.

| gene knocked down | dsRNA no. | infection score, replicate 1 | infection score, replicate 2 | cell count, replicate 1 | cell count, replicate 2 | outcome |
| --- | --- | --- | --- | --- | --- | --- |
| Smox | 1 | 0.81 | 16.7 | 6453 | 6353 | inactive |
| CG10366 | 1 | 46.9 | 17.6 | 3996 | 6878 | inactive |
| CG10366 | 2 | 1.29 | 3.09 | 5497 | 5212 | inactive |
| AOX3 | 1 | 18 | 12.7 | 6354 | 6603 | inactive |
| eyg | 1 | 0.92 | 20.6 | 5853 | 2644 | inactive |
| eyg | 2 | 6.35 | 6.6 | 6489 | 6557 | inactive |
| CG6660 | 1 | 6.41 | 20.1 | 6707 | 6304 | inactive |
| Sxl + CG14425 (retired record) | 1 | 2.1 | 26.9 | 6491 | 6677 | inactive |
| Sxl + CG14425 (retired record) | 2 | 1.96 | 0.73 | 6422 | 6846 | inactive |
| Sxl + CG14425 (retired record) | 3 | 4.83 | 5.16 | 5941 | 6041 | inactive |
| Sxl + CG14425 (retired record) | 4 | 21.4 | 20.5 | 4748 | 4459 | inactive |
| Hmu | 1 | 1.81 | 11.5 | 883 | 5359 | inactive |
| Hmu | 2 | 3.46 | 21.7 | 665 | 4484 | inactive |
| CG5906 | 1 | 2.73 | 2.76 | 6333 | 6274 | inactive |
| Cyp4ad1 | 1 | 16.7 | 5.84 | 6660 | 6183 | inactive |
| CG8924 | 1 | 2.84 | 5.32 | 6122 | 6340 | inactive |
| CG14811 | 1 | – | – | 384 | 392 | inactive |
| CG15923 | 1 | 4.35 | 6.53 | 6327 | 6828 | inactive |
| Nup58 | 1 | 4.93 | 11.8 | 5844 | 5117 | inactive |
| Nup58 | 2 | 2.11 | 2.93 | 6210 | 6037 | active |
| CG6048 | 1 | 3.97 | 4.99 | 6076 | 6831 | inactive |
| CG6048 | 2 | 9.75 | 4.98 | 2440 | 1849 | inactive |
| CG3309 | 1 | 1.61 | 4.54 | 6588 | 6538 | inactive |
| CG3309 | 2 | 19.1 | 6.81 | 5443 | 5818 | inactive |
| eIF2gamma | 1 | 17.8 | 3.41 | 1351 | 1319 | inactive |
| eIF2gamma | 2 | 25.4 | 20.4 | 6214 | 6444 | inactive |
| eIF2gamma | 3 | 28.2 | 13.8 | 4570 | 3083 | inactive |
| GstD6 | 1 | 7.87 | 12.6 | 6528 | 7095 | inactive |
| GstD6 | 2 | 6.23 | 2.01 | 5921 | 6254 | inactive |
| CG9117 | 1 | 8.14 | 13.8 | 5908 | 5432 | inactive |
| CG10300 | 1 | 15.2 | 16 | 5265 | 5340 | inactive |
| yellow-g2 | 1 | 1.16 | 3.11 | 6110 | 6435 | inactive |
| exu | 1 | 14.3 | 7.62 | 5035 | 1076 | inactive |
| Or92a | 1 | 2.28 | 10.6 | 788 | 5352 | inactive |
| snsl | 1 | 0.16 | 39.3 | 638 | 5227 | inactive |
| snsl | 2 | 6.74 | 4.4 | 5908 | 5609 | inactive |
| kug | 1 | 2.15 | 3.28 | 6845 | 6623 | inactive |
| Agxt | 1 | 7.11 | 4.6 | 5890 | 6525 | inactive |
| Agxt | 2 | 4.85 | 1.02 | 6097 | 5961 | inactive |
| ppk20 | 1 | – | 6.29 | 393 | 1621 | inactive |
| ppk20 | 2 | 16.1 | 11.8 | 5268 | 4618 | inactive |
| GCS2alpha | 1 | 0.52 | 0.11 | 6682 | 6629 | active |
| CG6220 | 1 | 4.53 | 5.63 | 6505 | 6147 | inactive |
| Srrm234 | 1 | 3.26 | 6 | 5423 | 4913 | inactive |
| Srrm234 | 2 | 5.06 | 13.5 | 5588 | 5499 | inactive |
| Spf30 | 1 | 4.93 | 4.36 | 4681 | 4706 | inactive |
| Hsf | 1 | 13.8 | 11.8 | 5025 | 3182 | inactive |
| Hsf | 2 | 9.18 | 4.61 | 4552 | 5595 | inactive |
| CG7332 | 1 | 4.36 | 12.3 | 7069 | 6737 | inactive |
| CG7332 | 2 | 21.4 | – | 3741 | 401 | inactive |
| CG44325 | 1 | 8.58 | 16.6 | 5795 | 6109 | inactive |
| ND-20 | 1 | 22.4 | 4.88 | 3330 | 6737 | inactive |
| CG9926 | 1 | 10.3 | 4.74 | 6603 | 6966 | inactive |
| CG9926 | 2 | 19.2 | 11.9 | 5675 | 5837 | inactive |
| Arc42 | 1 | – | 2.33 | 382 | 644 | inactive |
| Arc42 | 2 | 0.75 | 8.59 | 531 | 1036 | inactive |
| fzy | 1 | 18.8 | 13.8 | 2767 | 6140 | inactive |
| rhea | 1 | 1.62 | 2.09 | 6402 | 6875 | inactive |
